Results of unrelated studies side by side (data: NIAID ChemDB).

All rows: tests in culture; agent: HIV-1; endpoint: EC50

An empty or dashed field is not shown. ECn: concentration that inhibits the pathogen or its effect by n%. Conditions beyond the fields shown may differ between rows.

SMILES	strain or isolate	method	changes	cells	setting	value
Cc1cn([C@H]2C=C[C@@H](CO)O2)c(=O)[nH]c1=O	NL4-3	β-galactosidase	RT-K103N M184V	MAGI (CCR5) + MAGI	-	0.2 µM
Cc1ccnc2c1NC(=O)c1cccnc1N2C1CC1	BaL	cytopathic effect / XTT	-	MAC	-	0.4 µM
CO[C@H]1O[C@@H](n2ccc(=O)[nH]c2=O)C[C@@H]1N=[N+]=[N-]	LAV Laboratory strain	RT activity	-	PBMC (mitogen stimulated) + PBMC	-	0.2 µM
O=[N+]([O-])c1ccccc1S(=O)(=O)c1ccccc1	IIIB	cytopathic effect / XTT	-	Macrophage	-	0.91 µM
CCCCCCCCCCCCCCCCCCOCC(COP(=O)(O)C(=O)O)(OC)OC	-	plaque count	-	HT4 + HT4-6C	-	0.6 µM
Cc1ccnc2c1NC(=O)c1cccnc1N2C1CC1	IIIB	RT activity	-	PBL (activated) + PBL	-	<0.3 µM
O=S1(c2ccccc2)=NC(=S)Nc2ccccc21	IIIB	cytopathic effect / XTT	-	Macrophage	-	0.66 µM
CCCN(CCC)C(=O)OCC1CN(C(=O)c2cc(OC)c(OC)c(OC)c2)CCN1C(=O)c1cc(OC)c(OC)c(OC)c1	BaL	RT activity	-	Macrophage + Monocytes/macrophages	-	<100 µM
Nc1nc2c(ncn2[C@H]2C=C[C@@H](CO)O2)c(=O)o1	IIIB	RT activity	-	U-937/HIV-1(IIIB) + U-937	chronic infection	13 µg/mL
O=C([O-])c1ccc(C2=C3C=CC(=N3)C(c3ccc(C(=O)[O-])cc3)=C3C=CC(=N3)C(=c3ccc(=C([O-])[O-])cc3)c3ccc([n-]3)C(c3ccc(C(=O)[O-])cc3)=C3C=CC2=N3)cc1	IIIB	β-galactosidase	-	MAGI cell	-	1.4 µM
Cc1cn([C@H]2C=C[C@@H](CO)O2)c(=O)[nH]c1=O	IIIB	syncytia	-	CEM/dCK- + CEM	-	0.17 µM
C=CCN(C(=O)OCc1ccc([N+](=O)[O-])cc1)C1CCN(CCC(Cn2cnc3ccccc32)c2ccccc2)CC1	BaL	β-galactosidase	-	MAGI + MAGI-CCR5	-	<1 µM
Cc1cn([C@H]2C[C@H](N=[N+]=[N-])[C@@H](CO)O2)c(=O)[nH]c1=O	IIIB	cytopathic effect / XTT	RT-Y181C	CEM + CEM-SS	-	0.03 µM
CC(C)OC(=O)OCOP(=O)(CO[C@H](C)Cn1cnc2c(N)ncnc21)OCOC(=O)OC(C)C	G910-6 AZT-resistant (RT D67N K70R T215F K219Q)	p24	RT-D67N K70R T215F K219Q	MT-2	-	0.001 µM
Nc1ccn([C@@H]2CO[C@H](CO)S2)c(=O)n1	RF	p24	RT-M41L	C8166	-	4.4 µM
Cc1cn([C@H]2C[C@H](N=[N+]=[N-])[C@@H](CO)O2)c(=O)[nH]c1=O	NLAD8	MTT	-	PM1	-	0.086 µM
CC(C)(C)NC(=O)[C@H]1N(C(=O)[C@@H](O)[C@H](Cc2ccccc2)NC(=O)[C@H](CC(N)=O)NC(=O)COc2cccc3ccccc23)CSC1(C)C	ERS104	p24	-	PBMC(PHA) + PBMC	clinical isolate	0.107 µM
Nc1nc2c(ncn2[C@@H]2C[C@H](COP(=O)(O)O)[C@@H](O)[C@H]2O)c(=O)o1	IIIB	RT activity	-	U-937/HIV-1(IIIB) + U-937	chronic infection	>100 µg/mL
OCCOCCN1CCN(C2=Nc3ccccc3Sc3ccccc32)CC1	IIIB	cytopathic effect / MTT	-	CEM-T4 + CEM	-	>68 µg/mL
CCc1c(Sc2ccccn2)n(COCc2ccccc2)c(=O)[nH]c1=O	IIIB	cytopathic effect / XTT	-	AA5	-	0.04 µM
Nc1nc(N)c2ncn([C@H]3CO[C@@H](CO)O3)c2n1	HXB2D	RT activity	-	CBMC	-	1.1 µM
C=C(CC[C@@H](C)[C@H]1CC[C@@]2(C)[C@@H]3CC[C@H]4[C@](C)(C(=O)O)[C@@H](O)CC(=O)[C@@]45C[C@@]35CC[C@]12C)C(C)C	MC99 deltaTAT/REV	syncytia / β-galactosidase	-	1A2	-	6.8 µg/mL
O=c1[nH]cnc2c1ncn2[C@H]1CC[C@@H](CO)O1	BZ X4	RT activity	-	PBL (activated) + PBL	-	2.85 µM
Nc1ncnc2c1ncn2CC(CF)OCP(=O)(O)O	BaL	-	-	Macrophage + Monocytes/macrophages	-	0.95 µM
COc1cc(C(=O)N2CCN(C(=O)c3cc(OC)c(OC)c(OC)c3)C(COC(=O)NCC(C)(C)C)C2)cc(OC)c1OC	BaL	RT activity	-	Macrophage + Monocytes/macrophages	-	<100 µM
Cn1c2ccccc2c2c3c(c4c5ccccc5n(CC(F)F)c4c21)CNC3=O	-	syncytia	-	U1/HIV-1(PMA) + U1	-	0.04 µM
O=C1CN=C(c2ccc[nH]2)c2cc(Cl)ccc2N1	NL4-3 X4	p24	-	U87.CD4-CXCR4+ + U87.CD4	-	0.5 µg/mL
CC(C)=CC(=O)C[C@@H](C)[C@H]1CC[C@@]2(C)[C@@H]3CC[C@H]4[C@](C)(C(=O)O)[C@@H](O)CC[C@@]45C[C@@]35CC[C@]12C	MC99 deltaTAT/REV	syncytia / β-galactosidase	-	1A2	-	110 µg/mL
CC(C)(C)NC(=O)[C@@H]1CN(Cc2cccnc2)CCN1C[C@@H](O)C[C@@H](Cc1ccccc1)C(=O)N[C@H]1c2ccccc2C[C@H]1O	NL4-3 WT	luciferase / recombinant virus assay	-	HEK 293 + 293 Cells	-	0.008 µM
COC(=O)[C@H](C)NP(=O)(OC[C@@H]1O[C@H](n2ccc(N)nc2=O)CS1)Oc1ccccc1	IIIB	syncytia	-	CEM/dCK- + CEM	-	65 µM
CC(C)(C)NC(=O)[C@@H]1CSCN1C(=O)[C@@H](O)[C@H](Cc1ccccc1)NC(=O)[C@H](CC(N)=O)NC(=O)COc1cccc2ccccc12	ERS104	p24	-	PBMC(PHA) + PBMC	clinical isolate	0.11 µM
Cc1ccnc2c1NC(=O)c1cccnc1N2C1CC1	SF162	luciferase	-	ACH2 + TZM-bl	-	0.02814 µM
O=C(O)c1cc(C(=O)O)cc(-c2c3nc(c(-c4cc(C(=O)O)cc(C(=O)O)c4)c4ccc([nH]4)c(-c4cc(C(=O)O)cc(C(=O)O)c4)c4nc(c(-c5cc(C(=O)O)cc(C(=O)O)c5)c5ccc2[nH]5)C=C4)C=C3)c1	IIIB	β-galactosidase	-	MAGI cell	-	1.7 µM
COC(=O)N[C@@H](Cc1c[nH]c2ccccc12)C(=O)NCCCC[C@@H](CO)N(CC(C)C)S(=O)(=O)c1ccc(N)cc1	NL4-3 WT	luciferase / recombinant virus assay	-	HEK 293 + 293 Cells	-	0.106 µM
Nc1ncnc2c1ncn2CCOCP(=O)(O)O	BaL	-	-	Macrophage + Monocytes/macrophages	-	0.022 µM
Nc1nc2c(ncn2[C@@H]2C[C@H](CO)[C@@H](O)[C@H]2O)c(=O)o1	IIIB	RT activity	-	U-937/HIV-1(IIIB) + U-937	chronic infection	>100 µg/mL
C[C@H](Cn1cnc2c(N)ncnc21)OCP(=O)(O)O	-	PCR	-	Jurkat cells	-	7.5 µM
COc1ccc(Cl)cc1NC(=O)[C@H]1C[C@H](CCC(N)=O)N[C@]12C(=O)Nc1ccc(C)cc12	pNF462	p24 / ELISA	-	Primary macrophages	10% FBS	>10 µM
O=C(O)P(=O)(O)O	LAI viral clone (RT-Q161L)	syncytia	RT-Q161L	HT4LACZ-1 + HT4 LacZ-1	-	203 µM
C#C[C@@]1(CO)C=C[C@H](n2cc(C)c(=O)[nH]c2=O)O1	HXB2 WT	β-galactosidase	-	MAGI (CCR5) + MAGI	-	1.5 µM
Cc1nc2n(c(=O)c1CCN1CCC(c3noc4cc(F)ccc34)CC1)CCCC2	IIIB	cytopathic effect / MTT	-	CEM-T4 + CEM	-	>107 µg/mL
Cn1cc(C(=O)O)c(=O)c2cc(F)c(N3CC=C(c4ccccc4)CC3)c(C(F)(F)F)c21	IIIB	p24	-	MOLT-4/M0(HIV-1(IIIB)) + MOLT-4	-	0.05 µM
O=C(Nc1nc2ccc(C(F)(F)F)cc2s1)c1ccc([N+](=O)[O-])s1	NL4-3	flow cytometry	-	CEM-GXR	pseudotyped	0.5 µM
Cc1cn([C@H]2C[C@H](N=[N+]=[N-])[C@@H](COC(=O)C3=CN(C)C=CC3)O2)c(=O)[nH]c1=O	CD 451	p24 / ELISA	-	PBL(PHA STIM.) + PBL	-	<0.1 µM
Nc1nc2c(ncn2[C@H]2CO[C@@H](CO)O2)c(=O)[nH]1	IIIB	RT activity	-	CBMC	-	0.046 µM
Cc1cn([C@H]2C[C@H](N=[N+]=[N-])[C@@H](COP(=O)(O)O)O2)c(=O)[nH]c1=O	-	MTT	-	CEMx174 + CEM	-	0.03 µM
N#CCCn1c2ccc(O)cc2c2c3c(c4c5cc(O)ccc5[nH]c4c21)C(=O)NC3	-	p24	-	U1/HIV-1(PMA) + U1	-	0.23 µM
CCCc1cc(=O)oc2c3c(c4c(c12)OC(C)(C)C=C4)O[C@H](C)[C@@H](C)[C@@H]3O	IIIB	cytopathic effect / XTT	-	AA5	-	0.16 µM
Nc1ncnc2c1ncn2CCOCP(=O)(O)O	HE	syncytia	-	MOLT4 + MOLT-4	-	10 µM
O=c1[nH]cnc2c1ncn2[C@H]1CC[C@@H](CO)O1	IIIB	RT activity	-	U-937/HIV-1(IIIB) + U-937	chronic infection	39 µg/mL
CCCCCCCCCCCCCCCCCCOC[C@@H](COP(=O)(O)C(=O)O)OCCCCCCCCCCCC	-	plaque count	-	HT4 + HT4-6C	-	>100 µM
Nc1nc2c(ncn2[C@@H]2O[C@H](COP(=O)(O)O)[C@@H](O)[C@H]2O)c(=O)o1	IIIB	RT activity	-	U-937/HIV-1(IIIB) + U-937	chronic infection	21 µg/mL
CC(C)=CCOc1cc(NC(=S)c2ccsc2C)ccc1Cl	HE	cytopathic effect	-	MOLT	-	0.005 µg/mL
CCc1c(Sc2ccccn2)n(COCc2ccccc2)c(=O)[nH]c1=O	IIIB	cytopathic effect / XTT	-	Macrophage	-	0.007 µM
[Li+]	IIIB	cytopathic effect / MTT	-	CEM-T4 + CEM	-	>200 µg/mL
CCN(CC)C(=O)OCC1CN(C(=O)c2cc(OC)c(OC)c(OC)c2)CCN1C(=O)c1cc(OC)c(OC)c(OC)c1	THI Primary isolate	RT activity	-	Macrophage + Monocytes/macrophages	-	10 µM
CCCCCCCCCCCCCCCCCCOC[C@H](CO)OC	-	plaque count	-	HT4 + HT4-6C	-	>316 µM
CCOCn1c(Cc2ccccc2)c(C(C)C)c(=O)[nH]c1=O	HE	cytopathic effect	-	MOLT	-	0.009 µg/mL
C/C1=C\C[C@]2(C)C(=O)C(O)=C([C@H](C)CO)[C@H]2C/C=C(\C)[C@@H](O)CC/C(C)=C/CC1	-	syncytia	-	HELA-T4 + HeLa	-	0.46 µg/mL
O=C(O)c1ccc(-c2c3nc(c(-c4ccc(C(=O)O)cc4)c4ccc([nH]4)c(-c4ccc(C(=O)O)cc4)c4nc(c(-c5ccc(C(=O)O)cc5)c5ccc2[nH]5)C=C4)C=C3)cc1	IIIB	β-galactosidase	-	MAGI cell	-	2.6 µM
OCCN1CCN(CCCN2c3ccccc3Sc3ccc(C(F)(F)F)cc32)CC1	IIIB	cytopathic effect / MTT	-	CEM-T4 + CEM	-	>9.1 µg/mL
CCOC(=O)c1ccc(NC(=O)[C@H]2C[C@H](C(C)C)N[C@]23C(=O)Nc2ccc(Br)cc23)cc1	pNF462	p24 / ELISA	-	Primary macrophages	10% FBS	6.8 µM
Cc1ccnc2c1NC(=O)c1cccnc1N2C1CC1	NNRTI-resistant (RT K103N V108I)	β-galactosidase	RT-K103N V108I	MAGI	-	23 µM
Cc1cccc(C)c1OCC(=O)N[C@@H](Cc1ccccc1)[C@@H](O)C[C@H](Cc1ccccc1)NC(=O)[C@H](C(C)C)N1CCCNC1=O	NL4-3	luciferase	PR-L10I M36I M46I I54V L63P A71V I84V L90M	HEK 293 + 293T	-	0.42 µM
Cc1cn([C@H]2C[C@H](N=[N+]=[N-])[C@@H](CO)O2)c(=O)[nH]c1=O	-	PCR	-	Jurkat cells	-	3.4 µM
Cc1cn([C@H]2C[C@H](N=[N+]=[N-])[C@@H](CO)O2)c(=O)[nH]c1=O	DV	p24	-	SupT1 + Sup-T1	-	0.04 µM
Cc1cn([C@H]2C[C@H](N=[N+]=[N-])[C@@H](CO)O2)c(=O)[nH]c1=O	SF162 R5	RT activity	-	PBL (resting) + PBL	-	>4 µM
O=C(O)P(=O)(O)O	8420 CLADE D CLADE D	p24	-	PBMC	-	48.7 µM
CCCCCCCCCCCCCCCCCCOC[C@H](COP(=O)(O)C(=O)O)OCCCC	-	plaque count	-	HT4 + HT4-6C	-	2.2 µM
O=c1[nH]cnc2c1ncn2[C@H]1CC[C@@H](CO)O1	HXB2	p24	RT-M41L L74V V106A T215Y	C8166	-	6.5 µM
CN(C)CCCN1c2ccccc2Sc2ccc(Cl)cc21	IIIB	cytopathic effect / MTT	-	CEM-T4 + CEM	-	>6.3 µg/mL
NC(=O)c1ccn2c1CS[C@@H]2c1cccnc1	DAS	-	-	Monocytes/macrophages	-	50 µM
CN1CCN(C2=Nc3cc(Cl)ccc3Nc3ccccc32)CC1	IIIB	cytopathic effect / MTT	-	CEM-T4 + CEM	-	>21 µg/mL
Cc1cc(=O)c2ccc(N=C=S)cc2o1	NL4-3	p24 / ELISA	-	CEM-GFP	-	0.173 µM
C[C@@H](Cn1cnc2c(N)nc(N)nc21)OCP(=O)(O)O	HE	syncytia	-	MOLT4 + MOLT-4	-	8.5 µM

The first 5 rows once more:

SMILES,strain or isolate,method,changes,cells,setting,value
Cc1cn([C@H]2C=C[C@@H](CO)O2)c(=O)[nH]c1=O,NL4-3,β-galactosidase,RT-K103N M184V,MAGI (CCR5) + MAGI,-,0.2 µM
Cc1ccnc2c1NC(=O)c1cccnc1N2C1CC1,BaL,cytopathic effect / XTT,-,MAC,-,0.4 µM
CO[C@H]1O[C@@H](n2ccc(=O)[nH]c2=O)C[C@@H]1N=[N+]=[N-],LAV Laboratory strain,RT activity,-,PBMC (mitogen stimulated) + PBMC,-,0.2 µM
O=[N+]([O-])c1ccccc1S(=O)(=O)c1ccccc1,IIIB,cytopathic effect / XTT,-,Macrophage,-,0.91 µM
CCCCCCCCCCCCCCCCCCOCC(COP(=O)(O)C(=O)O)(OC)OC,-,plaque count,-,HT4 + HT4-6C,-,0.6 µM